Measurements from US20260069689A1, “ANTI-SARS-COV-2-SPIKE GLYCOPROTEIN ANTIBODIES AND ANTIGEN-BINDING FRAGMENTS” (Regeneron, published 2026).

B1: mAb14260 (antibody, V domains shown)
VH: EVQLVESGGGLVQPGGSLRLSCAASGFTFSIYEMNWVRQAPGKGLEWVSYITSSGFTIYYADSVKGRFTISRDNAKNSLYLQMHSLRAEDTAVYYCATSSSSGYYFDYWGQGTLVTVSS
VL: not shown
B2: mAb14260 (antibody, V domains shown)
VH: B1 VH
VL: not shown

How the values were obtained:
[1] = biological target: T1, SARS-CoV2 Spike ecto foldon Trimer expressed with a C-terminal myc-myc-hexahistidine (SARS-CoV-2, UniProt P0DTC2 14-1213); assay: SPR Biacore, mAb captured by anti-hFc, 25C
T1 construct: extracellular domain

[2] = biological target: T1, SARS-CoV2 Spike ecto foldon Trimer …; assay: SPR Biacore, mAb captured by anti-hFc, 37C
[3] = biological target: T2, SARS-COV-2 RBD extracellular domain expressed with a C-terminal mouse IgG2a Fc (SARS-CoV-2); assay: Biacore SPR, mAb captured on anti-hFc, 25 C
[4] = biological target: T2, SARS-COV-2 RBD extracellular domain …; assay: Biacore SPR, mAb captured on anti-hFc, 37 C

Binder | Kd [1] [nM] | koff [1] [s⁻¹] | kon [1] [M⁻¹ s⁻¹] | t½ [1] [h] | Kd [2] [nM] | koff [2] [s⁻¹] | kon [2] [M⁻¹ s⁻¹] | t½ [2] [h] | Kd [3] [nM] | koff [3] [s⁻¹] | kon [3] [M⁻¹ s⁻¹] | t½ [3] [h] | Kd [4] [nM] | koff [4] [s⁻¹] | kon [4] [M⁻¹ s⁻¹] | t½ [4] [h]
B1 | 0.0386 | 5.87e-05 | 1.52e+06 | 3.28 | 0.0604 | 5.73e-05 | 949000 | 3.36 | – | – | – | – | – | – | – | –
B2 | – | – | – | – | – | – | – | – | 0.0443 | 8.7e-05 | 1.96e+06 | 2.21 | 0.054 | 0.000104 | 1.93e+06 | 1.84
